Results from US20100203559A1.
“And” between values parts separate entries of the source, which are not always exact repeats. Equal entries are not always repeated.

The substances below were run against SNAP-25 cleavage product (lysate of Neuro-2a cells treated with 10 nM BoNT/A) (mouse (Neuro-2a cells)) (UniProt P60879).

Row | Substance | Signal/Noise Ratio (10 nM/0 nM)
1 | C-18 α-SNAP-25 goat polyclonal antibodies (Santa Cruz Biotechnology) | 0.8 and 0.9
2 | H-50 α-SNAP-25 rabbit polyclonal antibodies (Santa Cruz Biotechnology) | 0.9 and 1
3 | MC-6050 α-SNAP-25 mouse monoclonal antibody (Research & Diagnostic Antibodies) | 5
4 | MC-6053 α-SNAP-25 mouse monoclonal antibody (Research & Diagnostic Antibodies) | 7.1
5 | N-19 α-SNAP-25 goat polyclonal antibodies (Santa Cruz Biotechnology) | 0.9 and 1.1
6 | SMI-81 α-SNAP-25 mouse monoclonal antibody (Sternberger Monoclonals Inc.) | 1.1 and 1 and 0.8
7 | SP12 α-SNAP-25 mouse polyclonal antibodies (Santa Cruz Biotechnology) | 1
